Reference: patent US8629239B2, “Methylocystis strain SB2 materials and methods” (Iowa State University Research Foundation, Inc., priority 2010, dated 2014)

Test system: pmoA
Assay: pmoA expression in Methylocystis strain SB2 by RT-PCR and real-time quantitative RT-PCR
Type: cell-based
Conditions: for 16S transcript: 16S gene / pmoA transcript: pmoA gene / pmoA: 16S: growth substrate; for pmoA expression (reverse transcription-PCR): substrate as the sole carbon and energy source
[1] = grown on acetate from OD600 of 0.11 to 0.15
[2] = OD600 nm 0.30, standard deviation in parentheses

Structure (SMILES)	pmoA expression normalized to overall rRNA transcript levels, acetate vs. methane-grown (99% confidence interval)	pmoA transcript:pmoA gene copy number ratio, lower on acetate compared to methane (99% confidence interval)	decrease of pmoA expression normalized to overall transcription activity [1]	decrease of quantity of pmoA transcript [1]	decrease of ratio of 16S rRNA transcripts to 16S rRNA gene copy number (grown to an OD600 of 0.15)	16S transcript: 16S gene (OD600 nm 0.11)	pmoA transcript: pmoA gene (OD600 nm 0.11)	pmoA: 16S (OD600 nm 0.11)	16S transcript: 16S gene (OD600 nm 0.15)	pmoA transcript: pmoA gene (OD600 nm 0.15)	pmoA: 16S (OD600 nm 0.15)	decrease of expression of pmoA compared to growth on methane (real-time quantitative PCR and RT-PCR)	pmoA expression (reverse transcription-PCR)	16S transcript: 16S gene [2]	pmoA transcript: pmoA gene [2]	pmoA: 16S [2]	16S transcript: 16S gene (OD600 nm 0.43)	pmoA transcript: pmoA gene (OD600 nm 0.43)	pmoA: 16S (OD600 nm 0.43)
CC(=O)O [acetate]	11-46 fold	15-100 fold	three-fold	eight-fold	two-fold	1270 (322)	1.84 × 10^−1 (2.78 × 10^−2)	1.45 × 10^−4 (4.28 × 10^−5)	606 (129)	2.71 × 10^−2 (5.43 × 10^−3)	4.48 × 10^−5 (1.31 × 10^−5)	one to two orders of magnitude	expressed	–	–	–	–	–	–
CCO [ethanol]	–	–	–	–	–	–	–	–	–	–	–	–	expressed	–	–	–	–	–	–
C [methane]	–	–	–	–	–	–	–	–	–	–	–	–	expressed	1410 (405)^a	2.88 (0.28)	2.06 × 10^−3 (6.23 × 10^−4)	1680 (311)	2.84 (0.64)	1.69 × 10^−3 (4.89 × 10^−4)

Marks after values point to notes of the source that are not given here.
